Compound potency records, mixed from different reports. Data source: NIAID ChemDB in PubChem.

Shared fields: whole-cell or culture tests; species: Cryptococcus neoformans; measure: MIC

Neighbouring rows are from separate reports.

SMILES	strain or isolate	method	value
COc1cc(O)c2c(c1)C(=O)c1c(cc3c(c1O)-c1c(cc(C)c(C(=O)NC(C)C(=O)O)c1O)[C@H](OC1OC(C)C(N(C)C)C(OC4OCC(O)C(O)C4O)C1O)[C@H]3O)C2=O	D49	-	0.8 µg/mL
COc1cc(/C=C2\COc3ccccc3C2=O)ccc1O	Farwania	-	25 µg/mL
CCC(C)n1ncn(-c2ccc(N3CCN(c4ccc(OC[C@H]5CO[C@](Cn6cncn6)(c6ccc(Cl)cc6Cl)O5)cc4)CC3)cc2)c1=O	Clinical isolate (IM 972724)	broth dilution	0.25 µg/mL
COc1ccc(/C=C2\CSc3ccc(OC)cc3C2=O)cc1	25	-	12.5 µg/mL
C[C@@H]([C@@](O)(Cn1cncn1)c1ccc(F)cc1F)S(C)(=O)=O	R717 (AZOLE-R)	-	>1000 µM
Oc1ccccc1N=Cc1ccc(F)cc1	WP	broth dilution	8 µg/mL
C[C@@H](c1ncncc1F)[C@](O)(Cn1cncn1)c1ccc(F)cc1F	B 29739	broth dilution	0.008 µg/mL
Oc1ccccc1N=Cc1ccccc1	5396	broth dilution	5.7 µg/mL
COc1ccc2c(c1)C(=O)/C(=C/c1ccccc1OC)CO2	Farwania	-	3 µg/mL
Oc1ccc(O)c(C=Nc2ccccc2O)c1	27JF	broth dilution	11.3 µg/mL
Cn1nc(Cc2ccc(Cl)cc2)c2ccccc2c1=O	Clinical isolate (IM 972724)	broth dilution	3.9 µg/mL
Oc1ccccc1C=Nc1ccccc1O	VM-MCMMPI	broth dilution	5.7 µg/mL
CC[C@@H]([C@H](C)O)n1ncn(-c2ccc(N3CCN(c4ccc(OC[C@@H]5CO[C@@](Cn6cncn6)(c6ccc(F)cc6F)C5)cc4)CC3)cc2)c1=O	DUMC 251.86	-	0.063 µg/mL
Oc1ccccc1N=Cc1ccc2c(c1)OCO2	96806	broth dilution	5.7 µg/mL
COc1ccc(/C=C2\COc3ccc(-c4ccccc4)cc3C2=O)cc1OC	93/V	-	50 µg/mL

Repeating the first 2 entries:

SMILES	strain or isolate	method	value
COc1cc(O)c2c(c1)C(=O)c1c(cc3c(c1O)-c1c(cc(C)c(C(=O)NC(C)C(=O)O)c1O)[C@H](OC1OC(C)C(N(C)C)C(OC4OCC(O)C(O)C4O)C1O)[C@H]3O)C2=O	D49	-	0.8 µg/mL
COc1cc(/C=C2\COc3ccccc3C2=O)ccc1O	Farwania	-	25 µg/mL

An empty or dashed field is not shown.